Measured values from several laboratories, pooled; numbers as filed in NIAID ChemDB.

All rows: growth or infection tests; agent: Mycobacterium bovis

Blank or dashed fields: not listed here.

| smiles | measure | method | tested at | strain | result |
|---|---|---|---|---|---|
| CCOC(=O)N1CCN(c2ccc(C3CC(c4ccc([N+](=O)[O-])o4)=NO3)cc2)CC1 | MIC |  |  | BCG | 0.003 µg/mL |
| CC1CN(c2c(F)cc3c(=O)c(C(=O)O)cn(C4CC4)c3c2Br)CCN1 | MIC |  |  | BCG-CX1 (D94N) | 0.76 µg/mL |
| Cc1ncc([N+](=O)[O-])n1CCO | EC50 |  |  |  | >100 µM |
| C=C1[C@@H](O)[C@@H]2OC3(CCC(/C=C/[C@@H](C)[C@@H]4CC(C)=CC5(O[C@H](C[C@@](C)(O)C(=O)O)CC[C@H]5O)O4)O3)CC[C@H]2O[C@@H]1[C@@H](O)C[C@H](C)[C@H]1OC2(CCCCO2)CC[C@H]1C | inhibition |  | 6 µM | BCG | 0% |
| O=C(c1ccc([N+](=O)[O-])o1)N1CCc2cc(N3CCN(Cc4ccccc4)CC3)ccc2C1 | MIC |  |  | BCG | 0.006 µg/mL |
| CC(=O)N1CCN(c2ccc(OC[C@H]3CO[C@](Cn4ccnc4)(c4ccc(Cl)cc4Cl)O3)cc2)CC1 | EC50 |  |  |  | >1 µM |
| CO[C@H]1/C=C/O[C@@]2(C)Oc3c(C)c(O)c4c(O)c(c(/C=N/N5CCN(C)CC5)c(O)c4c3C2=O)NC(=O)/C(C)=C\C=C\[C@H](C)[C@H](O)[C@@H](C)[C@@H](O)[C@@H](C)[C@H](OC(C)=O)[C@@H]1C | MIC | resazurin |  | SB1953 | 1 µg/mL |
| CCC1CN(c2c(F)cc3c(=O)c(C(=O)O)cn(C4CC4)c3c2OC)CCN1 | MIC |  |  | BCG-KD1295 (WILD TYPE) | 0.048 µg/mL |
| Clc1ccc(COC(Cn2ccnc2)c2ccc(Cl)cc2Cl)cc1 | EC50 |  |  |  | ≤1 µM |
| O=C(O)c1ccc(N=Cc2cccc(O)c2O)cc1O | inhibition |  | 29 µM | BCG | 20% |
| Clc1ccc(COC(Cn2ccnc2)c2ccc(Cl)cc2Cl)c(Cl)c1 | EC50 |  |  |  | >1 µM |
| O=C(O)c1ccc(N=Cc2c(O)ccc3ccccc23)cc1O | inhibition |  | 26 µM | BCG | 90% |
| O=[N+]([O-])c1ccc(C2=NOC(c3ccc(N4CCN(Cc5ccccc5)CC4)cc3)C2)o1 | MIC |  |  | BCG | 0.0008 µg/mL |
| CC1CN(c2cc3c(cc2F)c(=O)c(C(=O)O)cn3C2CC2)CCN1 | MIC |  |  | BCG-KD1295 (WILD TYPE) | 0.053 µg/mL |
| O=C(O)c1ccc(N=Cc2ccccn2)cc1O | inhibition |  | 33 µM | BCG | 70% |
| O=c1cc(O)c2ccccc2o1 | MIC | broth dilution |  | BCG | 125 µg/mL |

Inhibition is in % at the dose shown (toxicity tests: loss of growth or viability). ECn is the concentration giving n% inhibition of infection, replication or growth. Conditions beyond the fields shown may differ between rows.